Anti-infective test results gathered from many reports (values: NIAID ChemDB through PubChem).

Common to all: tests in culture; species: Mycobacterium avium complex; measure: MIC

Neighbouring rows are from separate reports. Two numbers with a dash give a range or band.

SMILES | strain or isolate | value
NNC(=O)c1ccncc1 | 13039 | 0.8–1.25 µg/mL
CCCCCCO/N=C1\[C@H](C)CC(C)(O)[C@H](O[C@@H]2O[C@H](C)C[C@H](N(C)C)[C@H]2O)[C@@H](C)[C@H](OC2C[C@@](C)(OC)[C@@H](O)[C@H](C)O2)[C@@H](C)C(=O)O[C@H](CC)[C@@](C)(O)[C@H](O)[C@H]1C | 20039 (clarithromycin-susceptible) | 1.56 µg/mL
CO[C@H]1/C=C/O[C@@]2(C)Oc3c(C)c(O)c4c(O)c(c5c(c4c3C2=O)NC2(CCN(CC(C)C)CC2)N=5)=NC(=O)/C(C)=C\C=C\[C@H](C)[C@H](O)[C@@H](C)[C@@H](O)[C@@H](C)[C@H](OC(C)=O)[C@@H]1C | 1408-2 | 0.25 µg/mL
COCc1ccnc2c(NC(C)CCCN)cc(OC)c(Cc3cccc(C(F)(F)F)c3)c12 | 5 clinical isolates | >16 µg/mL
N#Cc1ccnc(SCc2ccccc2)c1 | MY330/88 | 125 µM
CC(C)N=C(N)/N=C(\N)NOCCCOc1cc(Cl)c(Cl)cc1Cl | 1960 | 32 µg/mL
CCCCC(=O)O[C@H]1[C@H](C)OC(O[C@H]2[C@H](C)[C@@H](O[C@@H]3O[C@H](C)C[C@H](N(C)C)[C@H]3O)C(C)(O)C[C@@H](C)/C(=N\OCCCOc3ccccc3)[C@H](C)[C@@H](O)[C@](C)(O)[C@@H](CC)OC(=O)[C@@H]2C)C[C@@]1(C)OC | 20039 (clarithromycin-susceptible) | 1.56 µg/mL
Cc1cc(NCc2cnc3nc(N)nc(N)c3c2C)c(Cl)cc1F | NJ3404 | ≤0.13 µg/mL
Clc1nc(Sc2ccccn2)c2[nH]cnc2n1 | NJ211 | >12.8 µg/mL
CCCCCCCCNNC(=O)O[C@H]1[C@H](O[C@@H]2[C@@H](C)[C@H](O[C@H]3C[C@@](C)(OC)[C@@H](OC(C)=O)[C@H](C)O3)[C@@H](C)C(=O)O[C@H](CC)[C@@](C)(O)[C@H](O)[C@@H](C)/C(=N/OCCCC3CCCCC3)[C@H](C)CC2(C)O)O[C@H](C)C[C@@H]1N(C)C | 20092 (clarithromycin-resistant) | 12.5 µg/mL
COc1ccc(OC)c(Sc2nc(Cl)nc3nc[nH]c23)c1.O | NJ211 | >12.8 µg/mL
CCCCCCCCO[C@@H]1O[C@H]([C@@H](COC)O[C@H]2O[C@H](CO)[C@@H](O)[C@@H]2O)[C@H](OC)[C@H]1OC | NJ211 | >128 µg/mL
Cc1ccc(CSc2cc(C#N)ccn2)cc1 | MY330/88 | >1000 µM
Cc1c(CNc2cc(Cl)ccc2Cl)cnc2nc(N)nc(N)c12 | NJ168 | ≤0.13 µg/mL
Nc1ccc(S(=O)(=O)c2ccc(N)cc2)cc1 | DW16 | 64 µg/mL
NC(=S)c1ccnc(SCc2ccc(F)cc2)c1 | MY330/88 | 31 µM
COc1ccccc1Sc1ccncc1 | NJ211 | >12.8 µg/mL
O[C@@H](c1cc2ccc(C(F)(F)F)cc2c2cc(C(F)(F)F)ccc12)[C@@H]1CCCCN1 | 101 (clarithromycin-resistant) | 2 µg/mL
Cc1noc(NS(=O)(=O)c2ccc(N)cc2)c1C | F-2 | 25 µg/mL
CN1CCN(c2ccc3c(=O)n4c(nc3c2)C(=O)c2cc(F)ccc2-4)CC1 | 19075 | 5 µg/mL
COc1ccc(CSc2cc(C#N)ccn2)cc1 | MY330/88 | 250 µM
Cc1ccc(CSc2ncnc3nc[nH]c23)cc1 | NJ211 | >12.8 µg/mL
O=C1c2ccccc2-n2c1nc1ncccc1c2=O | 19075 | 25 µg/mL
N#Cc1ccnc(SCc2ccc([N+](=O)[O-])cc2[N+](=O)[O-])c1 | MY330/88 | >1000 µM
O=C1c2c(Cl)cccc2-n2c1nc1ccccc1c2=O | 19075 | 5 µg/mL
CC1(C)N=C(N)N=C(N)N1OCCCOc1cc(Cl)c(Cl)cc1Cl | DW6 | 16 µg/mL
Cc1c(CNc2ccc3c(c2)Cc2ccccc2-3)cnc2nc(N)nc(N)c12 | NJ3404 | ≤0.13 µg/mL
CC[C@H]1OC(=O)[C@H](C)[C@@H](O[C@H]2C[C@@](C)(OC)[C@@H](O)[C@H](C)O2)[C@H](C)[C@@H](O[C@@H]2O[C@H](C)C[C@H](N(C)C)[C@H]2O)[C@](C)(O)C[C@@H](C)/C(=N\OCOCCOC)[C@H](C)[C@@H](O)[C@]1(C)O | N-93043 | 16 µg/mL
O[C@@H](c1cc2ccc(C(F)(F)F)cc2c2cc(C(F)(F)F)ccc12)[C@H]1CCCCN1 | 5 clinical isolates | 1–2 µg/mL
N#Cc1ccnc(SCc2ccc([N+](=O)[O-])cc2)c1 | MY330/88 | >1000 µM
CCCCCCCCO[C@@H]1O[C@H]([C@@H](CO)O[C@H]2O[C@H](CO)[C@@H](O)[C@@H]2O)[C@H](O)[C@H]1O | NJ168 | >128 µg/mL
CCCCN(CCCC)C[C@@H](O)c1cc2c(Cl)cc(Cl)cc2c2cc(C(F)(F)F)ccc12 | 5 clinical isolates | 1–2 µg/mL
COc1ccc(Sc2nc(Cl)nc3nc[nH]c23)cc1 | NJ211 | >12.8 µg/mL
CCOc1ccc(OCC)c(N(C)Cc2cnc3nc(N)nc(N)c3c2C)c1 | NJ211 | ≤0.13 µg/mL
Cc1cc(C)c2nc3n(c(=O)c2c1)-c1ccc(F)cc1C3=O | 19075 | 0.25 µg/mL
CC[C@H]1OC(=O)[C@H](C)[C@@H](O[C@H]2C[C@@](C)(OC)[C@@H](O)[C@H](C)O2)[C@H](C)[C@@H](O[C@@H]2O[C@H](C)C[C@H](N(C)C)[C@H]2O)[C@](C)(O)C[C@@H](C)CN(C)[C@H](C)[C@@H](O)[C@]1(C)O | R | 16 µg/mL
O=C1c2cc(Br)ccc2-n2c1nc1ccncc1c2=O | 19075 | 0.25 µg/mL
NC(=S)c1ccnc(SCc2cccc(Cl)c2)c1 | MY330/88 | 31 µM
CC[C@H]1OC(=O)[C@H](C)[C@@H](OC(=O)c2ccccc2)[C@H](C)[C@@H](O[C@@H]2O[C@H](C)C[C@H](N(C)C)[C@H]2O)C(C)(O)C[C@@H](C)/C(=N\OCCCOc2ccccc2)[C@H](C)[C@@H](O)[C@]1(C)O | 20039 (clarithromycin-susceptible) | 6.25 µg/mL
CC1CN(C(=O)OC(C)(C)C)CCN1c1cc2nc3n(c(=O)c2cc1F)-c1ccc(I)cc1C3=O | 19075 | 25 µg/mL
Cc1ccc(Cl)cc1NCc1cnc2nc(N)nc(N)c2c1C | NJ168 | ≤0.13 µg/mL

Repeating the final 5 entries:

SMILES,strain or isolate,value
O=C1c2cc(Br)ccc2-n2c1nc1ccncc1c2=O,19075,0.25 µg/mL
NC(=S)c1ccnc(SCc2cccc(Cl)c2)c1,MY330/88,31 µM
CC[C@H]1OC(=O)[C@H](C)[C@@H](OC(=O)c2ccccc2)[C@H](C)[C@@H](O[C@@H]2O[C@H](C)C[C@H](N(C)C)[C@H]2O)C(C)(O)C[C@@H](C)/C(=N\OCCCOc2ccccc2)[C@H](C)[C@@H](O)[C@]1(C)O,20039 (clarithromycin-susceptible),6.25 µg/mL
CC1CN(C(=O)OC(C)(C)C)CCN1c1cc2nc3n(c(=O)c2cc1F)-c1ccc(I)cc1C3=O,19075,25 µg/mL
Cc1ccc(Cl)cc1NCc1cnc2nc(N)nc(N)c2c1C,NJ168,≤0.13 µg/mL